Results of unrelated studies side by side (data: NIAID ChemDB).

Common to all: tests in culture; species: Herpes simplex virus 1; read by: cytopathic effect; measure: EC50

Lines come from different laboratories, so protocols vary. Blank or dashed fields: not listed here. ECn is the concentration giving n% inhibition of infection, replication or growth.

structure,cells,strain or isolate,value
CSCc1cn([C@H]2C[C@H](O)[C@@H](CO)O2)c(=O)[nH]c1=O,PRK,McIntyre,4 µg/mL
OC[C@H]1O[C@H](c2ccc(F)cc2F)C[C@@H]1O,E6SM,KOS,>400 µg/mL
O=C(CI)NCc1cn([C@H]2C[C@H](O)[C@@H](CO)O2)c(=O)[nH]c1=O,PRK,KOS,>200 µg/mL
Nc1ccn([C@@H]2O[C@H](CO)[C@@H](O)[C@@H]2O)c(=O)n1,HEL,KOS,0.01 µg/mL
Nc1ncnc2c1ncn2[C@@H]1O[C@H](CO)[C@@H](O)[C@H]1OP(=O)(O)OC[C@H]1O[C@@H](n2cnc3c(N)ncnc32)[C@H](OP(=O)(O)OC[C@H]2O[C@@H](n3cc(F)c(=O)[nH]c3=O)C[C@@H]2O)[C@@H]1O,PRK,KOS,70 µg/mL
Nc1nc2c(ncn2COCCO)c(=O)[nH]1,HFF,F21664 (acyclovir-susceptible),0.5 µg/mL
Cc1cn([C@@]2(C)C[C@H](O)[C@@H](CO)S2)c(=O)[nH]c1=O,HEL,,4 µg/mL
Cc1cc([C@H]2C[C@H](O)[C@@H](CO)O2)c(F)cc1Cl,E6SM,McIntyre,>400 µg/mL
[N-]=[N+]=N[C@@H]1[C@@H](OP(=O)(O)OC[C@H]2O[C@@H](n3cnc4c(N)ncnc43)[C@H](OP(=O)(O)OCCOCn3cnc4c(=O)[nH]c(N)nc43)[C@H]2N=[N+]=[N-])[C@H](n2cnc3c(N)ncnc32)O[C@@H]1CO,PRK,F,2 µg/mL
O=Cc1cn([C@H]2C[C@H](O)[C@@H](CO)O2)c(=O)[nH]c1=O,PRK,KOS,2 µg/mL
O=c1[nH]c(=O)n([C@@H]2O[C@H](CO)[C@@H](O)[C@@H]2O)cc1/C=C/Br,HEP-2,KOS,0.1 µg/mL
Cc1cc([C@@H]2C[C@H](O)[C@@H](CO)O2)c(F)cc1Cl,E6SM,KOS,9.6 µg/mL
O=c1[nH]c(=O)n([C@H]2C[C@H](O)[C@@H](CO)O2)cc1/C=C/Br,ESM,KOS,0.007 µg/mL
O=c1[nH]c(=O)n([C@H]2C[C@H](O)[C@@H](CO)O2)cc1I,PRK,VEO231,0.15 µg/mL
Nc1ncnc2c1ncn2[C@@H]1O[C@H](CO)[C@@H](O)[C@@H]1O,T-21,KOS,7 µg/mL
OC[C@H]1O[C@@H](c2cc(C(F)(F)F)c(F)cc2F)C[C@@H]1O,E6SM,F,>400 µg/mL

For reference, 2 entries again:

structure | cells | strain or isolate | value
Nc1ncnc2c1ncn2[C@@H]1O[C@H](CO)[C@@H](O)[C@@H]1O | T-21 | KOS | 7 µg/mL
[N-]=[N+]=N[C@@H]1[C@@H](OP(=O)(O)OC[C@H]2O[C@@H](n3cnc4c(N)ncnc43)[C@H](OP(=O)(O)OCCOCn3cnc4c(=O)[nH]c(N)nc43)[C@H]2N=[N+]=[N-])[C@H](n2cnc3c(N)ncnc32)O[C@@H]1CO | PRK | F | 2 µg/mL